The data set can be described thus: Hydrolysis of DXL monitored by 1H NMR.

Molecules are shown by their SMILES.

As to `C=CC(=O)OCCN(C)CCOC(=O)C=C`, where the note is “100 mM phosphate buffered D2O, pH 7.3, room temperature (22° C.), after 1 day”, the “DXL hydrolyzed (hydrolysis of one of the ester groups)” value is “about 31%”. Where the note is “one ester group, phosphate buffered D2O, pH 7.3, 22° C.”, the “pseudo first-order rate constant (k) of ester hydrolysis” value came out at 0.0151 h⁻¹. Also, the “hydrolysis rate relative to PDMAEA (times faster)” value (versus PDMAEA at pH 7) is “about 1.8 times”.

The values above are taken from US20250367282A1, “POLYCATION CARRIER PARTICLE” (ALLARTA LIFE SCIENCE INC., priority 2022, published 2025).
